Laboratory results: article PMC9232611

Biological target: Human PAI1 (human) (UniProt P05121)
Assay: SPR; Biacore X100; human PAI1 amine-coupled on flow cell 2 of a CM5 chip (300-500 RU); rhPRG4 injected at at least 5 concentrations, 2.74-2000 µg/mL, 30 µL/min, contact time 1 min, 25 °C; PBS with 0.01% (v/v) Tween 20; regeneration with 1 M NaCl

Kd: 2.7 µM
Substance: Full length recombinant human lubricin protein (rhPRG4) (from UniProt Q92954 25-1404) (natural protein; other documents disagree on this pair)
